Pooled drug test results. Numbers come from NIAID ChemDB, via PubChem.

Shared fields: tests in culture; species: Coxsackie virus; endpoint: EC50

Blank or dashed fields: not listed here. ECn: concentration that inhibits the pathogen or its effect by n%. Conditions beyond the fields shown may differ between rows. a–b is a range or a potency band.

SMILES,strain or isolate,cells,read by,value
Cc1ccc(CCCOc2cc(C)c(-c3noc(C(F)(F)F)n3)c(C)c2)nn1,-,HeLa,cytopathic effect,0.033–0.659 µg/mL
CSc1nsc(-c2ccc(OCc3ccccc3)cc2)c1C#N,TYPE B1,HEP-2,plaque count,10 µM
NC1=CC(N)=NS(=O)(=O)N1COCCO,TYPE B4,VERO,-,>400 µg/mL
CSc1nsc(-c2ccc3ccccc3c2)c1C#N,TYPE B1,HEP-2,plaque count,>20 µM
OC[C@H]1O[C@@H](n2nnc3ccnc(Cl)c32)C[C@@H]1O,B1,VERO,plaque count,>368 µM
CC(=O)OCCOCN1C=CC(=O)NS1(=O)=O,TYPE B4,VERO,-,>400 µg/mL
CCOC(=O)/C=C/C=C/[C@H]1O[C@@H](n2ccc(=O)[nH]c2=O)[C@H](O)[C@@H]1O,B4,HeLa,-,≥200 µM
CCCc1ccc(CCCOc2ccc(-c3noc(C4CC4)n3)c(C)c2)nn1,-,HeLa,cytopathic effect,0.033–0.659 µg/mL
Cc1ccc(C(=O)CCCCOc2ccc(C3=NCC(C)O3)cc2)s1,TYPE B2,VERO,cytopathic effect,3.08 µM
CSc1nsc(-c2ccc(OCCCOc3ccccc3)cc2)c1C#N,TYPE B1,HEP-2/L-929/VERO,plaque count,2.5 µM
C=C[C@@](C)(CO)CCn1cnc2c(N)ncnc21,TYPE B3,-,-,53.49 µg/mL
Cc1cc(OCCCc2ccc(C(C)F)nn2)cc(C)c1-c1noc(C(F)F)n1,-,HeLa,cytopathic effect,0.033–0.659 µg/mL
Cc1ccc(C(=O)CCCCOc2ccc(C3=NC(C)(C)CO3)cc2)s1,TYPE B5,VERO,cytopathic effect,>26.95 µM
CSc1nsc(-c2ccc(OCc3ccccc3)cc2)c1C#N,TYPE B1,HEP-2/L-929/VERO,plaque count,10 µM
Cc1ccc(C(=O)CCCCCCOc2ccc(C3=NC(C)CO3)cc2)s1,TYPE B5,VERO,cytopathic effect,>25.97 µM
CCc1ccc(CCCOc2ccc(-c3noc(C(F)(F)F)n3)c(C)c2)nn1,-,HeLa,cytopathic effect,0.033–0.659 µg/mL
CSc1nsc(C2CCCCC2)c1C#N,TYPE B1,HEP-2,plaque count,>50 µM
CSc1nsc(-c2ccc(OCCc3ccccc3)cc2)c1C#N,TYPE B1,HEP-2/L-929/VERO,plaque count,10 µM
CCC1COC(c2ccc(OCCCCCCC(=O)c3ccc(C)s3)cc2)=N1,TYPE B2,VERO,cytopathic effect,>25.06 µM
CCOC(=O)c1ccc(OCCCCOc2ccc(-c3snc(SC)c3C#N)cc2)cc1,TYPE B1,HEP-2/L-929/VERO,plaque count,>2 µM
Nc1nccc2c1nnn2[C@H]1C[C@H](O)[C@@H](CO)O1,B1,VERO,plaque count,>396 µM
Cc1cc(OCCCc2ccc(C(F)F)nn2)cc(C)c1-c1noc(C(F)F)n1,-,HeLa,cytopathic effect,0.033–0.659 µg/mL
Cc1ccc(C(=O)CCCCCCOc2ccc(C3=N[C@H](C)CO3)cc2)s1,TYPE B2,VERO,cytopathic effect,>25.97 µM
Cc1cccn2c(C3SCCS3)cnc12,TYPE B4,HeLa,-,>1000 µM
Cc1ccc(C(=O)CCCCCCOc2ccc(C3=NCCO3)cc2)s1,TYPE B2,VERO,cytopathic effect,>26.95 µM
CC(=O)c1ccc(CCCOc2ccc(-c3noc(C(F)F)n3)c(C)c2)nn1,-,HeLa,cytopathic effect,0.033–0.659 µg/mL
OCCCCn1cc(Cn2ncc3c(NCc4ccccc4)ncnc32)nn1,B4,HeLa,-,>400 µg/mL
Cc1cc(CCCCCOc2c(Cl)cc(C3=NCCO3)cc2Cl)on1,B3,RD-2,plaque count,0.009 µg/mL
Cc1cc(O/C=C/Cc2ccc(Cl)nn2)cc(C)c1-c1noc(C(F)(F)F)n1,-,HeLa,cytopathic effect,0.033–0.659 µg/mL
Cc1ccn2c(C3OCCS3)cnc2c1,TYPE B4,HeLa,-,>1000 µM
CCOC(=O)C1=CN(COCCOC(C)=O)S(=O)(=O)N=C1N,TYPE B4,HeLa,-,>400 µg/mL
CSc1nsc(-c2ccc(C)cc2)c1C#N,TYPE B1,HEP-2,plaque count,>18 µM
Nc1ncnc2c1nnn2[C@H]1C[C@H](O)[C@@H](CO)O1,B1,VERO,plaque count,>396 µM
CSc1nsc(-c2ccccc2Cl)c1C#N,TYPE B1,HEP-2,plaque count,>5 µM
Cc1ccn2c(C3OCCO3)cnc2c1,TYPE B4,HeLa,-,>1000 µM
CN=C(c1ccccc1)c1ccc2nc(N)n(S(=O)(=O)C(C)C)c2c1,TYPE A21,HeLa,cytopathic effect / XTT,0.05 µg/mL
Nc1nccc2nn([C@@H]3O[C@H](CO)[C@@H](O)[C@H]3O)nc12,B1,VERO,plaque count,>398 µM
CC(=O)OCCOCN1C=CC(=O)N(COCCOC(C)=O)S1(=O)=O,TYPE B4,VERO,-,>400 µg/mL
Cc1cccn2c(C3OCCO3)cnc12,TYPE B4,VERO,-,>1000 µM

Repeating the first 3 entries:

SMILES	strain or isolate	cells	read by	value
Cc1ccc(CCCOc2cc(C)c(-c3noc(C(F)(F)F)n3)c(C)c2)nn1	-	HeLa	cytopathic effect	0.033–0.659 µg/mL
CSc1nsc(-c2ccc(OCc3ccccc3)cc2)c1C#N	TYPE B1	HEP-2	plaque count	10 µM
NC1=CC(N)=NS(=O)(=O)N1COCCO	TYPE B4	VERO	-	>400 µg/mL